{"source": "patent US20170321196A1", "about": "“ANALYTICAL AND DIAGNOSTIC METHODS UTILIZING SHIGELLA FLEXNERI APYRASE” (priority 2014, published 2017)", "molecules": {"B1": {"name": "rSFA: Recombinant Shigella flexneri apyrase with 6-His tag, amino-acid sequence SEQ ID NO: 4, expressed in E. coli BL21-A1 (protein, listed as Shigella flexneri)", "chain": "DIHMKTKNFLLFCIATNMIFIPSANALKAEGFLTQQTSPDSLSILPPPPAENSVVFQADKAHYEFGRSLRDANRVRLASEDAYYENFGLAFSDAYGMDISRENTPILYQLLTQVLQDSHDYAVRNAKEYYKRVRPFVIYKDATCTPDKDEKMAITGSYPSGHASFGWAVALILAEINPQRKAEILRRGYEFGESRVICGAHWQSDVEAGRLMGASVVAVLHNTPEFTKSLSEAKKEFEELNTPTNELTPHHHHHHRTMF", "modifications": "6-His tag"}}, "experiment": "ATP degradation by apyrase in buffer, firefly luciferase bioluminescent assay", "assay_type": "biochemical", "description": "Cuvettes contained 100 μL sample in a total volume of 1 mL containing ATP Reagent SL (BioThema AB, Sweden) in 0.07 mol/L Tris- EDTA Buffer and the reaction was started by injection of 10 μL 10 μmol/L ATP Standard. The initial apyrase activity was determined as described by Lundin and coworkers (Analytical Biochemistry 75, 611-620 (1976) and Methods in Enzymology vol 305, 346-370 (2000)) with some modifications. Bioluminescence was measured at every 10 s during 1 min, in the fully automatic 1251 Luminometer (LKB-Wallac, Turku, Finland). To this, 10 μl of 10 μmol/L ATP was added to determine the background ground luminescence. The temperature control was set to 25° C. and bioluminescence was measured from several cuvettes in parallel during 30 or 60 minutes and compared to residual ATP after various incubation times using rSFA and STA. This was repeated with rSFA and STA and a graph was plotted by keeping the ATP-degradation rate as internal control to determine the ATP-degradation efficiency of both of the enzyme sources.\nLight emission from the firefly-luciferase reaction was measured at 25° C. in a 1251 Luminometer (LKB-Wallac; Finland) using the ATP Kit SL (BioThema AB, Sweden) according to the manufacture's instruction (in buffer experiment) or adding concentrated luciferase (in serum/urine experiments). Initially luciferase reaction follows first-order kinetics and the ATP Reagent SL in this kit produces light intensity proportional to the ATP concentration. A plot of the natural logarithm of the light intensity versus time yields a straight line with the slope representing the rate constant of the reaction. Starting concentration of STA, A6535, A6237 (Sigma-Aldrich) was adjusted similar to rSFA. BL-reaction was started automatically upon addition of 0.2 μmol/L ATP, and the light intensity was measured every 10 second for 10 minutes (in buffer experiment) or 30 minutes (in serum and urine experiments), in the reaction volume of 0.5 mL.", "data": [{"molecule": "B1", "values": [{"measurement": "concentration of ATP in rSFA treated samples lower than STA-treated samples", "setting": "at 91 minutes", "result": "about 45 fold"}, {"measurement": "improvement in completeness of ATP elimination versus commercial STA variants", "setting": "in buffer, FIG. 7, log scale", "result": "at least 10 fold"}, {"measurement": "concentration of ATP in rSFA treated samples lower compared to STA-treated samples", "setting": "time point 17 minutes", "result": "about 20 times"}]}]}
